Results on 1 sequence are retold here after PMC5318444.

Construct, isoform or probe ends are uncertain for at least one entry. Tags and fusion partners may be left off the protein sequences shown.

The target of this data set is T1, FNR D154A tandem dimer, His6-(FNR-FNR)2 (UniProt P0A9E6).
T1 sequence (looked up, limits assumed): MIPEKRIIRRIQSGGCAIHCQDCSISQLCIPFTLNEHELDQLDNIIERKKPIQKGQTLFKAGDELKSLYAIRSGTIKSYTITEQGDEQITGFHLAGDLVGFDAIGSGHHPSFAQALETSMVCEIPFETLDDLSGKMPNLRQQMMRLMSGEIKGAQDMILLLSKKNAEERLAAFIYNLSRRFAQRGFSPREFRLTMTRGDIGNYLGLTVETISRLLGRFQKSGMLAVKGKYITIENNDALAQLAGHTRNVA
The data set can be described thus: EMSA. The following applies: 10 mM Tris pH 7.5, 1 mM EDTA, 1 mM DTT, 50 mM KCl, 50 mM MgCl2, 1 ug/ml BSA; 10 nM DNA, protein 0-240 nM; 30 min room temperature (ArcA); recombinant protein; protein details: His6; probe letters rebuilt from the primers and the genome.

Consider “GGCGCGTCTTATACTCCCACATAAGCCAGATTCAACAGCGAATACGTCTTCCCCAAATTGCCCACTTCCATACTTCCTCCTTACCAGAAATCTATCCTTAAGCTCCTTAATAACCATTTTCCTGCTAACTAAATTCATGGTTAAGGTTGCATAATGATATGCAACAAATGTATAACATTTTTCTTACCAAAAAATAAACAAAAGCGACCGACAAAAGCATTGGATTACGGCAGGAG (double strand) [kgtP promoter probe]”, for which the binding result was “binds”.
